This is an account of results in article PMC9104152, “Phosphoproteomics Unravel HBV Triggered Rewiring of Host Phosphosignaling Events” (International Journal of Molecular Sciences, 2022).

The series relates to HepG2-NTCP cells. Briefly: TMT-based phosphoproteome profiling of HBV-infected vs mock HepG2-NTCP (HBV/mock ratio). The arrangement: species or system human. The note with it: phosphosite abundance ratio of host protein, HBV-infected vs mock HepG2-NTCP, 7dpi, sheet Up-regulated.

B1: Q9C0I1 1xPhospho [S564(100)] (protein, UniProt Q9C0I1 1-747, looked up)
Myotubularin-related protein …: MLGKGVVGGGGGTKAPKPSFVSYVRPEEIHTNEKEVTEKEVTLHLLPGEQLLCEASTVLKYVQEDSCQHGVYGRLVCTDFKIAFLGDDESALDNDETQFKNKVIGENDITLHCVDQIYGVFDEKKKTLFGQLKKYPEKLIIHCKDLRVFQFCLRYTKEEEVKRIVSGIIHHTQAPKLLKRLFLFSYATAAQNNTVTDPKNHTVMFDTLKDWCWELERTKGNMKYKAVSVNEGYKVCERLPAYFVVPTPLPEENVQRFQGHGIPIWCWSCHNGSALLKMSALPKEQDDGILQIQKSFLDGIYKTIHRPPYEIVKTEDLSSNFLSLQEIQTAYSKFKQLFLIDNSTEFWDTDIKWFSLLESSSWLDIIRRCLKKAIEITECMEAQNMNVLLLEENASDLCCLISSLVQLMMDPHCRTRIGFQSLIQKEWVMGGHCFLDRCNHLRQNDKEEVPVFLLFLDCVWQLVHQHPPAFEFTETYLTVLSDSLYIPIFSTFFFNSPHQKDTNMGREGQDTQSKPLNLLTVWDWSVQFEPKAQTLLKNPLYVEKPKLDKGQRKGMRFKHQRQLSLPLTQSKSSPKRGFFREETDHLIKNLLGKRISKLINSSDELQDNFREFYDSWHSKSTDYHGLLLPHIEGPEIKVWAQRYLRWIPEAQILGGGQVATLSKLLEMMEEVQSLQEKIDERHHSQQAPQAEAPCLLRNSARLSSLFPFALLQRHSSKPVLPTSGWKALGDEDDLAKREDEFVDLGDV
modifications: phospho S564
For B1, the HBV/mock is 1.3689.

B2: Q9Y2K7 1xPhospho [S869(100)] (protein, UniProt Q9Y2K7 1-1162, looked up)
Lysine-specific demethylase 2A: MEPEEERIRYSQRLRGTMRRRYEDDGISDDEIEGKRTFDLEEKLHTNKYNANFVTFMEGKDFNVEYIQRGGLRDPLIFKNSDGLGIKMPDPDFTVNDVKMCVGSRRMVDVMDVNTQKGIEMTMAQWTRYYETPEEEREKLYNVISLEFSHTRLENMVQRPSTVDFIDWVDNMWPRHLKESQTESTNAILEMQYPKVQKYCLMSVRGCYTDFHVDFGGTSVWYHIHQGGKVFWLIPPTAHNLELYENWLLSGKQGDIFLGDRVSDCQRIELKQGYTFVIPSGWIHAVYTPTDTLVFGGNFLHSFNIPMQLKIYNIEDRTRVPNKFRYPFYYEMCWYVLERYVYCITNRSHLTKEFQKESLSMDLELNGLESGNGDEEAVDREPRRLSSRRSVLTSPVANGVNLDYDGLGKTCRSLPSLKKTLAGDSSSDCSRGSHNGQVWDPQCAPRKDRQVHLTHFELEGLRCLVDKLESLPLHKKCVPTGIEDEDALIADVKILLEELANSDPKLALTGVPIVQWPKRDKLKFPTRPKVRVPTIPITKPHTMKPAPRLTPVRPAAASPIVSGARRRRVRCRKCKACVQGECGVCHYCRDMKKFGGPGRMKQSCVLRQCLAPRLPHSVTCSLCGEVDQNEETQDFEKKLMECCICNEIVHPGCLQMDGEGLLNEELPNCWECPKCYQEDSSEKAQKRKMEESDEEAVQAKVLRPLRSCDEPLTPPPHSPTSMLQLIHDPVSPRGMVTRSSPGAGPSDHHSASRDERFKRRQLLRLQATERTMVREKENNPSGKKELSEVEKAKIRGSYLTVTLQRPTKELHGTSIVPKLQAITASSANLRHSPRVLVQHCPARTPQRGDEEGLGGEEEEEEEEEEEDDSAEEGGAARLNGRGSWAQDGDESWMQREVWMSVFRYLSRRELCECMRVCKTWYKWCCDKRLWTKIDLSRCKAIVPQALSGIIKRQPVSLDLSWTNISKKQLTWLVNRLPGLKDLLLAGCSWSAVSALSTSSCPLLRTLDLRWAVGIKDPQIRDLLTPPADKPGQDNRSKLRNMTDFRLAGLDITDATLRLIIRHMPLLSRLDLSHCSHLTDQSSNLLTAVGSSTRYSLTELNMAGCNKLTDQTLIYLRRIANVTLIDLRGCKQITRKACEHFISDLSINSLYCLSDEKLIQKIS
modifications: phosphorylated S869
As to B2, the HBV/mock worked out at 1.334.

B3: P29966 1xPhospho [S101(100)] (protein, UniProt P29966 2-332, looked up)
Myristoylated alanine-rich …: GAQFSKTAAKGEAAAERPGEAAVASSPSKANGQENGHVKVNGDASPAAAESGAKEELQANGSAPAADKEEPAAAGSGAASPSAAEKGEPAAAAAPEAGASPVEKEAPAEGEAAEPGSPTAAEGEAASAASSTSSPKAEDGATPSPSNETPKKKKKRFSFKKSFKLSGFSFKKNKKEAGEGGEAEAPAAEGGKDEAAGGAAAAAAEAGAASGEQAAAPGEEAAAGEEGAAGGDPQEAKPQEAAVAPEKPPASDETKAAEEPSKVEEKKAEEAGASAAACEAPSAAGPGAPPEQEAAPAEEPAAAAASSACAAPSQEAQPECSPEAPPAEAAE
modifications: phosphorylated S101
In the case of B3, the HBV/mock came out at 1.31.

B4: Q15742 2xPhospho [S162(100); S] (protein, UniProt Q15742 1-525, looked up)
NGFI-A-binding protein 2: MHRAPSPTAEQPPGGGDSARRTLQPRLKPSARAMALPRTLGELQLYRVLQRANLLSYYETFIQQGGDDVQQLCEAGEEEFLEIMALVGMATKPLHVRRLQKALREWATNPGLFSQPVPAVPVSSIPLFKISETAGTRKGSMSNGHGSPGEKAGSARSFSPKSPLELGEKLSPLPGGPGAGDPRIWPGRSTPESDVGAGGEEEAGSPPFSPPAGGGVPEGTGAGGLAAGGTGGGPDRLEPEMVRMVVESVERIFRSFPRGDAGEVTSLLKLNKKLARSVGHIFEMDDNDSQKEEEIRKYSIIYGRFDSKRREGKQLSLHELTINEAAAQFCMRDNTLLLRRVELFSLSRQVARESTYLSSLKGSRLHPEELGGPPLKKLKQEVGEQSHPEIQQPPPGPESYVPPYRPSLEEDSASLSGESLDGHLQAVGSCPRLTPPPADLPLALPAHGLWSRHILQQTLMDEGLRLARLVSHDRVGRLSPCVPAKPPLAEFEEGLLDRCPAPGPHPALVEGRRSSVKVEAEASRQ
modifications: diphosphorylated, S162
For B4, the HBV/mock worked out at 1.469.

B5: Q5T2T1 1xPhospho [S/Y] (protein, UniProt Q5T2T1 1-576, looked up)
MAGUK p55 subfamily member 7: MPALSTGSGSDTGLYELLAALPAQLQPHVDSQEDLTFLWDMFGEKSLHSLVKIHEKLHYYEKQSPVPILHGAAALADDLAEELQNKPLNSEIRELLKLLSKPNVKALLSVHDTVAQKNYDPVLPPMPEDIDDEEDSVKIIRLVKNREPLGATIKKDEQTGAIIVARIMRGGAADRSGLIHVGDELREVNGIPVEDKRPEEIIQILAQSQGAITFKIIPGSKEETPSKEGKMFIKALFDYNPNEDKAIPCKEAGLSFKKGDILQIMSQDDATWWQAKHEADANPRAGLIPSKHFQERRLALRRPEILVQPLKVSNRKSSGFRKSFRLSRKDKKTNKSMYECKKSDQYDTADVPTYEEVTPYRRQTNEKYRLVVLVGPVGVGLNELKRKLLISDTQHYGVTVPHTTRARRSQESDGVEYIFISKHLFETDVQNNKFIEYGEYKNNYYGTSIDSVRSVLAKNKVCLLDVQPHTVKHLRTLEFKPYVIFIKPPSIERLRETRKNAKIISSRDDQGAAKPFTEEDFQEMIKSAQIMESQYGHLFDKIIINDDLTVAFNELKTTFDKLETETHWVPVSWLHS
modifications: phosphorylated
For the molecule B5, the HBV/mock was determined as 1.61.

B6: Q8N1G4 1xPhospho [S/T] (protein, UniProt Q8N1G4 2-583, looked up)
Leucine-rich …: AAAAVSESWPELELAERERRRELLLTGPGLEERVRAAGGQLPPRLFTLPLLHYLEVSGCGSLRAPGPGLAQGLPQLHSLVLRRNALGPGLSPELGPLPALRVLDLSGNALEALPPGQGLGPAEPPGLPQLQSLNLSGNRLRELPADLARCAPRLQSLNLTGNCLDSFPAELFRPGALPLLSELAAADNCLRELSPDIAHLASLKTLDLSNNQLSEIPAELADCPKLKEINFRGNKLRDKRLEKMVSGCQTRSILEYLRVGGRGGGKGKGRAEGSEKEESRRKRRERKQRREGGDGEEQDVGDAGRLLLRVLHVSENPVPLTVRVSPEVRDVRPYIVGAVVRGMDLQPGNALKRFLTSQTKLHEDLCEKRTAATLATHELRAVKGPLLYCARPPQDLKIVPLGRKEAKAKELVRQLQLEAEEQRKQKKRQSVSGLHRYLHLLDGNENYPCLVDADGDVISFPPITNSEKTKVKKTTSDLFLEVTSATSLQICKDVMDALILKMAEMKKYTLENKEEGSLSDTEADAVSGQLPDPTTNPSAGKDGPSLLVVEQVRVVDLEGSLKVVYPSKADLATAPPHVTVVR
modifications: phosphorylated
Take B6: the HBV/mock worked out at 1.449.

B7: Q09161 1xPhospho [S22(99.7)] (protein, UniProt Q09161 1-790, looked up)
Nuclear cap-binding protein …: MSRRRHSDENDGGQPHKRRKTSDANETEDHLESLICKVGEKSACSLESNLEGLAGVLEADLPNYKSKILRLLCTVARLLPEKLTIYTTLVGLLNARNYNFGGEFVEAMIRQLKESLKANNYNEAVYLVRFLSDLVNCHVIAAPSMVAMFENFVSVTQEEDVPQVRRDWYVYAFLSSLPWVGKELYEKKDAEMDRIFANTESYLKRRQKTHVPMLQVWTADKPHPQEEYLDCLWAQIQKLKKDRWQERHILRPYLAFDSILCEALQHNLPPFTPPPHTEDSVYPMPRVIFRMFDYTDDPEGPVMPGSHSVERFVIEENLHCIIKSHWKERKTCAAQLVSYPGKNKIPLNYHIVEVIFAELFQLPAPPHIDVMYTTLLIELCKLQPGSLPQVLAQATEMLYMRLDTMNTTCVDRFINWFSHHLSNFQFRWSWEDWSDCLSQDPESPKPKFVREVLEKCMRLSYHQRILDIVPPTFSALCPANPTCIYKYGDESSNSLPGHSVALCLAVAFKSKATNDEIFSILKDVPNPNQDDDDDEGFSFNPLKIEVFVQTLLHLAAKSFSHSFSALAKFHEVFKTLAESDEGKLHVLRVMFEVWRNHPQMIAVLVDKMIRTQIVDCAAVANWIFSSELSRDFTRLFVWEILHSTIRKMNKHVLKIQKELEEAKEKLARQHKRRSDDDDRSSDRKDGVLEEQIERLQEKVESAQSEQKNLFLVIFQRFIMILTEHLVRCETDGTSVLTPWYKNCIERLQQIFLQHHQIIQQYMVTLENLLFTAELDPHILAVFQQFCALQA
modifications: phosphorylated S22
On to B7, for which the HBV/mock is 1.607.

B8: Q8TD19 2xPhospho [S] (protein, UniProt Q8TD19 2-979, looked up)
Serine/threonine-protein …: SVLGEYERHCDSINSDFGSESGGCGDSSPGPSASQGPRAGGGAAEQEELHYIPIRVLGRGAFGEATLYRRTEDDSLVVWKEVDLTRLSEKERRDALNEIVILALLQHDNIIAYYNHFMDNTTLLIELEYCNGGNLYDKILRQKDKLFEEEMVVWYLFQIVSAVSCIHKAGILHRDIKTLNIFLTKANLIKLGDYGLAKKLNSEYSMAETLVGTPYYMSPELCQGVKYNFKSDIWAVGCVIFELLTLKRTFDATNPLNLCVKIVQGIRAMEVDSSQYSLELIQMVHSCLDQDPEQRPTADELLDRPLLRKRRREMEEKVTLLNAPTKRPRSSTVTEAPIAVVTSRTSEVYVWGGGKSTPQKLDVIKSGCSARQVCAGNTHFAVVTVEKELYTWVNMQGGTKLHGQLGHGDKASYRQPKHVEKLQGKAIRQVSCGDDFTVCVTDEGQLYAFGSDYYGCMGVDKVAGPEVLEPMQLNFFLSNPVEQVSCGDNHVVVLTRNKEVYSWGCGEYGRLGLDSEEDYYTPQKVDVPKALIIVAVQCGCDGTFLLTQSGKVLACGLNEFNKLGLNQCMSGIINHEAYHEVPYTTSFTLAKQLSFYKIRTIAPGKTHTAAIDERGRLLTFGCNKCGQLGVGNYKKRLGINLLGGPLGGKQVIRVSCGDEFTIAATDDNHIFAWGNGGNGRLAMTPTERPHGSDICTSWPRPIFGSLHHVPDLSCRGWHTILIVEKVLNSKTIRSNSSGLSIGTVFQSSSPGGGGGGGGGEEEDSQQESETPDPSGGFRGTMEADRGMEGLISPTEAMGNSNGASSSCPGWLRKELENAEFIPMPDSPSPLSAAFSESEKDTLPYEELQGLKVASEAPLEHKPQVEASSPRLNPAVTCAGKGTPLTPPACACSSLQVEVERLQGLVLKCLAEQQKLQQENLQIFTQLQKLNKKLEGGQQVGMHSKGTQTAKEEMEMDPKPDLDSDSWCLLGTDSCRPSL
modifications: diphosphorylated
For B8, the HBV/mock is 1.454.
